Anti-infective test results gathered from many reports (values: NIAID ChemDB through PubChem).

Shared fields: whole-cell or culture tests; organism: HIV-1

An empty or dashed field is not shown. ECn is the concentration giving n% inhibition of infection, replication or growth. Lines come from different laboratories, so protocols vary.

SMILES | method | cells | measure | strain | changes | conditions | result
CC(C)C1=C2[C@H]3CC[C@@H]4[C@@]5(C)CC[C@H](OC(=O)[C@H]6C[C@@H](C(=O)O)C6(C)C)C(C)(C)[C@@H]5CC[C@@]4(C)[C@]3(C)CC[C@@]2([C@@H](O)CNC[C@H](C)NC(=O)c2ccc(Cl)cc2)CC1=O | p24 / ELISA | MT-2 | EC50 | 92HT599 |  |  | <1 µM
Cc1c(Cc2c(Cl)cccc2Cl)nc(N)nc1Nc1ccc(C#N)cc1 | cytopathic effect / MTT | MT-4 | EC50 |  |  |  | 0.01 µM
O=C(O)C(=O)/C=C(\O)c1cc(Cc2cccc(Cl)c2)cn(Cc2ccc(F)cc2)c1=O |  | MAGI | EC50 |  |  |  | 1.4 µM
CC(=O)OCCOCN1c2cc(-c3ccccc3)sc2C(=O)N(Cc2ccccc2)S1(=O)=O |  | CEM | EC50 |  |  |  | >400 µg/mL
NC/C=C\Cn1cnc2c(N)ncnc21 | syncytia | CEM | EC50 |  |  |  | 4.83 µM
Nc1nc(NC2CC2)c2ncn([C@H]3C=C[C@@H](CO)C3)c2n1 | syncytia | CEM | EC50 | IIIB |  |  | 2.3 µM
Cc1cccnc1[C@H]1C[C@H](O)[C@@H](CO)O1 |  | MT-4 | EC50 |  |  |  | >200 µg/mL
O=C1Nc2ccc(Cl)cc2[C@@](C#CC2CC2)(C(F)(F)F)[C@H]1OCc1ccncc1 |  |  | EC50 |  | RT-L100I K103N |  | <4.83 µM
CC(C)COC(=O)[C@@H](C)NP(=O)(CO[C@H](C)Cn1cnc2c(N)ncnc21)NC[C@H](C)C(=O)OC(C)C | fluorescence | MT4-GFP | EC50 |  |  | 50% human serum | 51.6 µM
O=C(O)C(=O)/C=C(\O)c1cc(Cc2ccccc2F)cn(Cc2ccc(F)cc2)c1=O |  | MAGI | EC50 |  |  |  | 0.8 µM
CC(=O)N[C@H]1C(=O)Nc2ccc(Cl)cc2[C@@]1(C#CC1CC1)C(F)(F)F |  | MT-2 | EC50 | RF |  |  | <0.917 µM
O=c1[nH]cnc2c1ncn2OCCOCP(=O)(O)O |  | PBMC | EC50 |  |  |  | 10 µM
Cc1nc2ccc(CNC(=O)C[C@@]34CC[C@]5(C)[C@H](CC[C@@H]6[C@@]7(C)CC[C@H](OC(=O)[C@H]8C[C@@H](C(=O)O)C8(C)C)C(C)(C)[C@@H]7CC[C@]65C)C3=C(C(C)C)C(=O)C4)cc2[nH]1 | p24 / ELISA | MT-2 | EC50 | 92HT599 |  |  | <1 µM
CC(C)OC(=O)CCNP(=O)(CO[C@H](C)Cn1cnc2c(N)ncnc21)N[C@H](C)C(=O)OC(C)C | fluorescence | MT4-GFP | EC50 |  |  | 50% human serum | 393 µM
O=C1N[C@H](Cc2ccccc2)C(=O)NC1Cc1c[nH]c2c([C@]34C[C@H]5C(=O)N[C@H](Cc6ccccc6)C(=O)N5[C@H]3Nc3ccccc34)cccc12 | MTT | C8166 | EC50 |  |  |  | 98.9 µM
Nc1nc(N2CCCCC2)c2ncn(CCOCP(=O)(O)O)c2n1 | cytopathic effect / MTT | MT-4 | EC50 | IIIB |  |  | 3 µg/mL
Nc1nc(Cl)c2ncn(OCCOCP(=O)(O)O)c2n1 |  | PBMC | EC50 |  |  |  | <9 µM
Cc1cccc(Cn2cc(Cc3ccc(F)c(Cl)c3)cc(/C(O)=C/C(=O)C(=O)O)c2=O)c1 |  | MAGI | EC50 |  |  |  | 2.2 µM
Nc1nc2c(ncn2[C@H]2C=CC[C@@H](CO)C2)c(=O)[nH]1 | cytopathic effect / XTT | CEM + CEM-SS | EC50 | RF |  |  | >50 µg/mL
Nc1nc(NC2CCCCC2)c2ncn(CCOCP(=O)(O)O)c2n1 | cytopathic effect / MTT | MT-4 | EC50 | IIIB |  |  | 5.7 µg/mL
Cc1ccnc(C2=C[C@H](O)[C@@H](CO)O2)c1 |  | MT-4 | EC50 |  |  |  | 12 µg/mL
CC(C)C[C@H]1NC(=O)C(Cc2c[nH]c3c(C45C[C@H]6C(=O)N[C@H](Cc7ccccc7)C(=O)N6[C@H]4Nc4ccccc45)cccc23)NC1=O | MTT | C8166 | EC50 |  |  |  | 47.6 µM
O=C1c2ccccc2C(=O)N1C/C=C\Cn1ccc(=O)[nH]c1=O | syncytia | CEM | EC50 |  |  |  | >100 µM
CC(C)OC(=O)[C@@H](C)CNP(=O)(CO[C@H](C)Cn1cnc2c(N)ncnc21)N[C@H](C)C(=O)OC(C)C | fluorescence | MT4-GFP | EC50 |  |  | 10% human serum | 257.9 µM
Cc1nnc(C(=O)N(CCN(C)C)C[C@H](O)[C@@]23CC[C@]4(C)[C@H](CC[C@@H]5[C@@]6(C)CC[C@H](OC(=O)[C@H]7C[C@@H](C(=O)O)C7(C)C)C(C)(C)[C@@H]6CC[C@]54C)C2=C(C(C)C)C(=O)C3)o1 | p24 / ELISA | MT-2 | EC50 | 92HT599 |  |  | <1 µM
Cc1c(-c2c(C(OC(C)(C)C)C(=O)O)n(C)c(=O)c3c2ccn3Cc2ccccc2)ccc2c1CCCO2 | MTS | MT-4 | EC50 | IIIB |  |  | 1.36 µM
CC(C)C1=C2[C@H]3CC[C@@H]4[C@@]5(C)CC[C@H](OC(=O)[C@H]6C[C@@H](C(=O)O)C6(C)C)C(C)(C)[C@@H]5CC[C@@]4(C)[C@]3(C)CC[C@@]2([C@@H](O)CNC(=O)[C@@H](N)C(C)C)CC1=O | p24 / ELISA | MT-2 | EC50 | 92HT599 |  |  | <1 µM
CC(=O)N[C@@H](Cc1ccccc1)C(=O)N[C@H](C(=O)N[C@@H](CC(C)C)[C@@H](O)CC(=O)N[C@@H](CC(C)C)C(=O)N[C@@H](Cc1ccccc1)C(N)=O)C(C)C |  | MT-2 | EC50 |  |  |  | 12.6 µM
Nc1ccccc1CO[C@H]1C(=O)Nc2ccc(Cl)cc2[C@@]1(C#CC1CC1)C(F)(F)F |  | MT-2 | EC50 | RF |  |  | <0.115 µM
O=C(/C=C/c1ccc(O)cc1)OC[C@@H]1OC(Oc2ccc(C(=O)/C=C/c3ccc(O)c(O)c3)c(O)c2O)[C@@H](O)[C@H](O)[C@H]1O | cytopathic effect / XTT | C8166 | EC50 | MN |  |  | 50 µM
COC(=O)[C@H](C)NP(=O)(OC[C@@H]1C=C[C@H](n2cnc3c(NC4CC4)nc(N)nc32)C1)Oc1ccccc1 | antigen | MM + M/M | EC50 | BaL |  |  | 0.01 µM
Nc1nc(Cl)c2nnn([C@H]3C=CC[C@@H](CO)C3)c2n1 | cytopathic effect / XTT | CEM + CEM-SS | EC50 | RF |  |  | >50 µg/mL
Nc1nc(N2CCCC2)c2ncn(CCOCP(=O)(O)O)c2n1 | cytopathic effect / MTT | CEM | EC50 | IIIB |  |  | 2.17 µg/mL
O=C1CC(C#CC2CC2)(C(F)(F)F)c2cc(Cl)ccc2N1 |  |  | EC50 |  | RT-L100I |  | <0.992 µM
CSc1cc(N)nc(S[C@@H](C)c2cc3c(C)coc3cn2)n1 | p24 | MT-4 | EC90 | IIIB |  |  | 0.004 µM
COC(=O)Cc1cccc2c1nc(-c1c(F)cccc1F)n2Cc1c(F)cccc1F |  |  | EC50 |  |  |  | 0.06 µM
O=S(=O)(O)c1ccc(N=Nc2ccc(N=Nc3ccc(/C=C/c4ccc(N=[N+]([O-])c5ccc(/C=C/c6ccc(N=Nc7ccc(N=Nc8ccc(S(=O)(=O)O)cc8)c8ccccc78)cc6S(=O)(=O)O)c(S(=O)(=O)O)c5)cc4S(=O)(=O)O)c(S(=O)(=O)O)c3)c3ccccc23)cc1 |  | CEM | EC50 |  |  |  | 5 µM
COc1ccc(Cn2cc(Cc3ccccc3)cc(/C(O)=C/C(=O)C(=O)O)c2=O)cc1 |  | MAGI | EC50 |  |  |  | 1.8 µM
NC/C=C/Cn1cnc2c(N)ncnc21 | syncytia | CEM | EC50 |  |  |  | >50 µM
Cc1cn([C@H]2C[C@H](NC(=O)C(F)(F)F)[C@@H](CO)O2)c(=O)[nH]c1=O | ELISA / antigen | MT-4 | EC50 | IIIB |  |  | >1 µM
C[C@H](Cn1cnc2c(N(C)C)ncnc21)OCP(=O)(O)O | cytopathic effect / MTT | MT-4 | EC50 | IIIB |  |  | 0.4 ± 0.01 µg/mL
CCCCCOC(=O)C(C)(C)N[P@](=O)(CO[C@H](C)Cn1cnc2c(N)ncnc21)N[C@@H](CC(=O)OC(C)C)C(C)C | fluorescence | MT4-GFP | EC50 |  |  | 50% human serum | 4.4 µM
Cc1cccnc1[C@@H]1C[C@H](O)[C@@H](CO)O1 |  | MT-4 | EC50 |  |  |  | >200 µg/mL
C[C@H](CC1CNC2C1CC(N)CN2N)OCP(=O)(O)O | cytopathic effect / MTT | CEM | EC50 | IIIB |  |  | >100 µg/mL
Nc1ccc(CO[C@H]2C(=O)Nc3ccc(Cl)cc3[C@@]2(C#CC2CC2)C(F)(F)F)cc1 |  |  | EC50 |  | RT-K103N |  | <1.082 µM
Cc1c(C(C)c2c(F)cccc2F)nc(NN2CCCCCC2)[nH]c1=O | MTT | MT-4 | EC50 | NL4-3 |  |  | 0.009 µM
C[C@H](Cn1cnc2c(N)ncnc21)OCP(=O)(O)O | syncytia | CEM | EC50 | IIIB |  |  | 3 µM
Nc1c(S(=O)(=O)O)cc(S(=O)(=O)O)c2ccc(N=Nc3ccc(/C=C/c4ccc(N=Nc5ccc6c(S(=O)(=O)O)cc(S(=O)(=O)O)c(N)c6c5O)cc4S(=O)(=O)O)c(S(=O)(=O)O)c3)c(O)c12 |  | CEM | EC50 |  |  |  | 20 µM
O=C1NS(=O)(=O)N(Cc2ccccc2)c2sc(-c3ccccc3)cc21 |  | CEM | EC50 |  |  |  | >400 µg/mL
CC(C)C1=C2[C@H]3CC[C@@H]4[C@@]5(C)CC[C@H](OC(=O)[C@H]6C[C@@H](C(=O)O)C6(C)C)C(C)(C)[C@@H]5CC[C@@]4(C)[C@]3(C)CC[C@@]2([C@@H](O)CN(CCN(C)C)Cc2ccccc2Cl)CC1=O | p24 / ELISA | MT-2 | EC50 | 92HT599 |  |  | <1 µM
Nc1nc2c(ncn2OCC(CO)OCP(=O)(O)O)c(=O)[nH]1 |  | PBMC | EC50 |  |  |  | 0.06 µM
Cc1cc(-c2ccc(N=Nc3ccc4c(S(=O)(=O)O)cc(S(=O)(=O)O)c(N)c4c3O)c(C)c2)ccc1N=Nc1ccc2c(S(=O)(=O)O)cc(S(=O)(=O)O)c(N)c2c1O |  | CEM | EC50 |  |  |  | 7 µM
O=C1c2ccccc2C(=O)N1C/C=C/Cn1cc(F)c(=O)[nH]c1=O | syncytia | CEM | EC50 |  |  |  | >20 µM
Nc1nc2c(nnn2[C@H]2C=CC[C@@H](CO)C2)c(=O)[nH]1 | cytopathic effect / XTT | CEM + CEM-SS | EC50 | RF |  |  | >50 µg/mL
CC(C)C1=C2[C@H]3CC[C@@H]4[C@@]5(C)CC[C@H](OC(=O)[C@H]6C[C@@H](C(=O)O)C6(C)C)C(C)(C)[C@@H]5CC[C@@]4(C)[C@]3(C)CC[C@@]2(CC(=O)NCc2ccc(Cl)cc2OC2CCNCC2)CC1=O | p24 / ELISA | MT-2 | EC50 | 92HT599 |  |  | <1 µM
O=C1Nc2ccc(Cl)cc2[C@@](C#CC2CC2)(C(F)(F)F)[C@H]1OCc1ccccc1F |  | MT-2 | EC50 | RF |  |  | <0.14 µM
CC(=O)N[C@@H](Cc1cccc2ccccc12)C(=O)N[C@H](C(=O)N[C@@H](CC(C)C)[C@@H](O)CC(=O)N[C@@H](CC(C)C)C(=O)N[C@@H](Cc1ccccc1)C(N)=O)C(C)C |  | CEM | EC50 |  |  |  | 1.09 µM
C[C@H](Cn1cnc2c(NCCCC3CCCCC3)ncnc21)OCP(=O)(O)O | cytopathic effect / MTT | CEM | EC50 | IIIB |  |  | 10 ± 0 µg/mL
O=C1c2sc(-c3ccccc3)cc2N(COCCO)S(=O)(=O)N1Cc1ccccc1 |  | CEM | EC50 |  |  |  | >400 µg/mL
O=c1[nH]cnc2c1ncn2[C@H]1C=CC[C@@H](CO)C1 | cytopathic effect / XTT | CEM + CEM-SS | EC50 | RF |  |  | >50 µg/mL
CC(C)OC(=O)CCNP(=O)(CO[C@H](C)Cn1cnc2c(N)ncnc21)N[C@@H](C)C(=O)OC1CCC1 | fluorescence | MT4-GFP | EC50 |  |  | 10% human serum | 120.6 µM
Cc1ccc(C2=C[C@H](O)[C@@H](CO)O2)nc1 |  | MT-4 | EC50 |  |  |  | 16 µg/mL
Nc1c(N=Nc2ccc(-c3ccc(N=Nc4c(O)ccc5cc(S(=O)(=O)O)cc(S(=O)(=O)O)c45)cc3)cc2)c(S(=O)(=O)O)cc2cc(S(=O)(=O)O)c(N=Nc3ccccc3)c(O)c12 |  | CEM | EC50 |  |  |  | 10 µM
O=C1c2sc(-c3ccccc3)cc2NS(=O)(=O)N1COCCO |  | CEM | EC50 |  |  |  | >400 µg/mL
COC(=O)[C@@H](NP(=O)(OC[C@@H]1C=C[C@H](n2cc(C)c(=O)[nH]c2=O)O1)Oc1ccccc1)C(C)C | cytopathic effect / microscopy | CEM + CEM/0 | EC50 |  |  |  | 13 µM
C[C@H](C[n+]1c[nH]c2c(Nc3ccccc3)nc(N)nc21)OCP(=O)(O)O | cytopathic effect / MTT | MT-4 | EC50 | IIIB |  |  | 10.3 ± 1.4 µg/mL
CC(=O)OCCOCCN1C(=O)c2cc(-c3ccccc3)sc2N(Cc2ccccc2)S1(=O)=O |  | CEM | EC50 |  |  |  | >400 µg/mL

For reference, 6 entries again:

SMILES	method	cells	measure	strain	changes	conditions	result
COc1ccc(Cn2cc(Cc3ccccc3)cc(/C(O)=C/C(=O)C(=O)O)c2=O)cc1		MAGI	EC50				1.8 µM
Nc1ccc(CO[C@H]2C(=O)Nc3ccc(Cl)cc3[C@@]2(C#CC2CC2)C(F)(F)F)cc1			EC50		RT-K103N		<1.082 µM
O=C1N[C@H](Cc2ccccc2)C(=O)NC1Cc1c[nH]c2c([C@]34C[C@H]5C(=O)N[C@H](Cc6ccccc6)C(=O)N5[C@H]3Nc3ccccc34)cccc12	MTT	C8166	EC50				98.9 µM
O=C1Nc2ccc(Cl)cc2[C@@](C#CC2CC2)(C(F)(F)F)[C@H]1OCc1ccccc1F		MT-2	EC50	RF			<0.14 µM
O=c1[nH]cnc2c1ncn2OCCOCP(=O)(O)O		PBMC	EC50				10 µM
C[C@H](C[n+]1c[nH]c2c(Nc3ccccc3)nc(N)nc21)OCP(=O)(O)O	cytopathic effect / MTT	MT-4	EC50	IIIB			10.3 ± 1.4 µg/mL